Measured values from US9617289B2, “RSV antiviral compounds” (JANSSEN R&D IRELAND, priority 2012, dated 2017).
Some results come without the dose or concentration used.

These compounds were tested on HeLa cells (assay: Cytotoxicity in HeLa cells (ATP content, ATPlite kit); SI calculated as CC50/EC50). Conditions: SI is calculated as CC50/EC50, three days.
Type: cell-based

Structure (SMILES) | SI | SI_TOX-HELA_wt
CS(=O)(=O)CCCn1c(CN2C(=O)C3(CCN(c4ccc(Cl)nn4)CC3)c3cc(Br)ccc32)nc2cc(Cl)ccc21 [Compound 20, 5-bromo-1-((5-chloro-1-(3-(methylsulfonyl)propyl)-1H-benzo[d]imidazol-2-yl)methyl)-1′-(6-chloropyridazin-3-yl)spiro[indoline-3,4′-piperidin]-2-one] | 1880 | –
O=C1N(Cc2nc3cc(Cl)ccc3n2CCCC(F)(F)F)c2cc(F)ccc2C12CCOCC2 [Compound 71, 1-((5-chloro-1-(4,4,4-trifluorobutyl)-1H-benzo[d]imidazol-2-yl)methyl)-6-fluoro-2′,3′,5′,6′-tetrahydrospiro[indoline-3,4′-pyran]-2-one] | 12968 | –
N#CCCCn1c(CN2C(=O)C3(CN(C(=O)C(O)CO)C3)c3ccccc32)cc2cc(Cl)ccc21 (stereo not shown) [Compound 165, 4-(5-chloro-2-((1-(2,3-dihydroxypropanoyl)-2′-oxospiro[azetidine-3,3′-indolin]-1′-yl)methyl)-1H-indol-1-yl)butanenitrile] | – | 288416
CC(O)(C(=O)N1CCC2(CC1)C(=O)N(Cc1nc3cc(Cl)ccc3n1CCCC#N)c1cnccc12)C(F)(F)F (stereo not shown) [Compound 116, 4-(5-Chloro-2-{[2′-oxo-1-(3,3,3-trifluoro-2-hydroxy-2-methylpropanoyl)spiro[piperidine-4,3′-pyrrolo[2,3-c]pyridin]-1′(2′H)-yl]methyl}-1H-benzimidazol-1-yl)butanenitrile] | – | >1.42e+006
CC(=O)NS(=O)(=O)N1CCC2(CC1)C(=O)N(Cc1cc3cc(Cl)ccc3n1CCCCF)c1cnccc12 [Compound 114, N-[(1′-{[5-Chloro-1-(4-fluorobutyl)-1H-indol-2-yl]methyl}-2′-oxo-1′,2′-dihydro-1H-spiro[piperidine-4,3′-pyrrolo[2,3-c]-pyridin]-1-yl)sulfonyl]acetamide] | – | 120036
CC(C)(O)CN1CC2(C1)C(=O)N(Cc1nc3cc(Cl)ccc3n1CCCS(C)(=O)=O)c1ccccc12 [Compound 8, 1′-({5-chloro-1-[3-(methylsulfonyl)propyl]-1H-benzimidazol-2-yl}methyl)-1-(2-hydroxy-2-methylpropyl)spiro[azetidine-3,3′-indol]-2′(1′H)-one] | >127462 | –
N#CCCCn1c(CN2c3ccccc3[C@]3(C[C@H](NC(=O)OC4CC4)C3)C2=O)nc2cc(Cl)ccc21 [Compound 125, cyclopropyl ((1s,3s)-1′-((5-chloro-1-(3-cyanopropyl)-1H-benzo[d]imidazol-2-yl)methyl)-2′-oxospiro[cyclobutane-1,3′-indolin]-3-yl)carbamate] | – | >342949
COC(=O)N1CCC2(CC1)C(=O)N(Cc1nc3cc(Cl)ccc3n1CCCCF)c1cnccc12 [Compound 178, Methyl 1′-{[5-chloro-1-(4-fluorobutyl)-1H-benzimidazol-2-yl]methyl}-2′-oxo-1′,2′-dihydro-1H-spiro[piperidine-4,3′-pyrrolo[2,3-c]pyridine]-1-carboxylate] | – | 3132492
CS(=O)(=O)CCCn1c(CN2C(=O)C3(CN(CC(F)(F)F)C3)c3ccccc32)nc2cc(Cl)ccc21 [Compound 9, 1′-[[5-chloro-1-(3-methylsulfonylpropyl)benzimidazol-2-yl]methyl]-1-(2,2,2-trifluoroethyl)spiro[azetidine-3,3′-indoline]-2′-one] | >234634 | –
COC(=O)N1CCC2(CC1)C(=O)N(Cc1nc3cc(Cl)ccc3n1CCCC#N)c1cnccc12 [Compound 98, Methyl 1′-{[5-chloro-1-(3-cyanopropyl)-1H-benzimidazol-2-yl]methyl}-2′-oxo-1′,2′-dihydro-1H-spiro[piperidine-4,3′-pyrrolo[2,3-c]pyridine]-1-carboxylate] | – | >1.465e+006
CC(C)(C)OC(=O)N1CCC2(CC1)C(=O)N(Cc1cc3cc(Cl)ccc3n1CCCC#N)c1cnccc12 [Compound 63, tert-butyl 1′-((5-chloro-1-(3-cyanopropyl)-1H-indol-2-yl)-methyl)-2′-oxo-1′,2′-dihydrospiro[piperidine-4,3′-pyrrolo-[2,3-c]pyridine]-1-carboxylate] | 100580 | –
CS(=O)(=O)N1CC2(C1)C(=O)N(Cc1nc3cc(Cl)ccc3n1CCCC#N)c1ccccc12 [Compound 94, 4-(5-Chloro-2-{[1-(methylsulfonyl)-2′-oxospiro[azetidine-3,3′-indol]-1′(2′H)-yl]methyl}-1H-benzimidazol-1-yl)-butanenitrile] | – | >770442
CC(C)(O)C(=O)N1CCC2(CC1)C(=O)N(Cc1cc3cc(Cl)ccc3n1CCCCO)c1cnccc12 [Compound 155, 1′-{[5-Chloro-1-(4-hydroxybutyl)-1H-indol-2-yl]methyl}-1 - (2-hydroxy-2-methylpropanoyl)spiro[piperidine-4,3′-pyrrolo[2,3-c]pyridin]-2′(1′H)-one] | – | 291340
N#CCCCn1c(CN2C(=O)C3(CN(C(=O)[C@@H](O)CO)C3)c3ccccc32)cc2cc(Cl)ccc21 (single isomer, unassigned) [Compound 129] | – | 144016
CC(C)(O)C(=O)N1CCC2(C1)C(=O)N(Cc1nc3cc(Cl)ccc3n1CCCS(C)(=O)=O)c1ccccc12 (stereo not shown) [Compound 138, 1-((5-chloro-1-(3-(methylsulfonyl)propyl)-1H-benzo[d]imidazol-2-yl)methyl)-1′-(2-hydroxy-2-methylpropanoyl)spiro[indoline-3,3′-pyrrolidlin]-2-one] | – | >46631.6
N#CCCCn1c(CN2C(=O)C3(CCN(S(=O)(=O)c4cccs4)CC3)c3ccncc32)cc2cc(Cl)ccc21 [Compound 96, 4-(5-Chloro-2-{[2′-oxo-1-(thiophen-2-ylsulfonyl)spiro-[piperidine-4,3′-pyrrolo[2,3-c]pyridin]-1′(2′H)-yl]methyl}-1H-indol-1-yl)butanenitrile] | – | >233222
N#CCCCn1c(CN2C(=O)C3(CCS(=O)(=O)CC3)c3ccncc32)nc2cc(Cl)ccc21 [Compound 108, 4-{5-Chloro-2-[(1′,1′-dioxido-2-oxo-2′,3′,5′,6′,-tetrahydro-spiro[pyrrolo[2,3-c]pyridine-3,4′-thiopyran]-1(2H)-yl)-methyl]-1H-benzimidazol-1-yl}butanenitrile] | – | >57149.2
CS(=O)(=O)CCCn1c(CN2C(=O)C3(CC(O)C3)c3ccccc32)nc2cc(Cl)ccc21 [Compound 12, (3R)-1′-({5-chloro-1-[3-(methylsulfonyl)propyl]-1H-benzimidazol-2-yl}methyl)-3-hydroxyspiro[cyclobutane-1,3′-indol]-2′(1′H)-one] | >194729 | –
NS(=O)(=O)N1CCC2(CC1)C(=O)N(Cc1cc3cc(Cl)ccc3n1CCCCF)c1cnccc12 [Compound 111, 1′-{[5-Chloro-1-(4-fluorobutyl)-1H-indol-2-yl]methyl}-2′-oxo-1′,2′-dihydro-1H-spiro[piperidine-4,3′-pyrrolo[2,3-c]-pyridine]-1-sulfonamide] | – | 274530
CS(=O)(=O)CCCn1c(CN2C(=O)C3(CCOCC3)c3cc(F)ccc32)nc2cc(Cl)ccc21 [Compound 19] | >21417.6 | –
CS(=O)(=O)CCCn1c(CN2C(=O)C3(CN(C(=O)C(F)(F)F)C3)c3ccccc32)nc2cc(Cl)ccc21 [Compound 31, 1-({5-chloro-1-[3-(methylsulfonyl)propyl]-1H-benzimidazol-2-yl}methyl)-1-(trifluoroacetyl)spiro-[azetidine-3,3′-indol]-2′(1′H)-one] | >34055.7 | –
N#CCCCn1c(COC2CC3(C2)C(=O)N(Cc2nc4cc(Cl)ccc4n2CCCC#N)c2ccccc23)nc2cc(Cl)ccc21 [Compound 110, 4-(5-chloro-2-(((1S,3S)-1′-((5-chloro-1-(3-cyanopropyl)-1H-benzo[d]imidazol-2-yl)methyl)-2′-oxospiro[cyclobutane-1,3′-indoline]-3-yloxy)methyl)-1H-benzo[d]imidazol-1-yl)butanenitrile] | – | >69368.1
CS(=O)(=O)CCCn1c(CN2C(=O)C3(CC(O)C3)c3ccccc32)nc2cc(Cl)ccc21 [Compound 11, (3S)-1′-({5-chloro-1-[3-(methylsulfonyl)propyl]-1H-benzimidazol-2-yl}methyl)-3-hydroxyspiro[cyclobutane-1,3′-indol]-2′(1′H)-one] | >249735 | –
CS(=O)(=O)CCCn1c(CN2C(=O)C3(CCNCC3)c3c(Cl)cccc32)nc2cc(Cl)ccc21 [Compound 26, 4-chloro-1-({5-chloro-1-[3-(methylsulfonyl)propyl]-1H-benzimidazol-2-yl}methyl)spiro[indole-3,4′-piperidin]-2(1H)-one] | 164 | –
O=C(NS(=O)(=O)N1CCC2(CC1)C(=O)N(Cc1cc3cc(Cl)ccc3n1CCCCF)c1cnccc12)C1CC1 [Compound 184, N-[(1′-{[5-Chloro-1-(4-fluorobutyl)-1H-indol-2-yl]methyl}-2′-oxo-1′,2′-dihydro-1H-spiro[piperidine-4,3′-pyrrolo[2,3-c]pyridin]-1-yl)sulfonyl]cyclopropanecarboxamide] | – | 215909
CNC(=O)O[C@H]1C[C@@]2(C1)C(=O)N(Cc1nc3cc(Cl)ccc3n1CCCC#N)c1ccccc12 [Compound 168, (1r,3r)-1′-((5-chloro-1-(3-cyanopropyl)-1H-benzo[d]imidazol-2-yl)methyl)-2′-oxospiro[cyclobutane-1,3′-indolin]-3-yl methylcarbamate] | – | 2134519
CC(C)(O)C(=O)N1CCC2(CC1)C(=O)N(Cc1c(C(N)=O)c3cc(Cl)ccc3n1CCCCF)c1cnccc12 [Compound 153, 5-Chloro-1-(4-fluorobutyl)-2-{[1-(2-hydroxy-2-methylpropanoyl)-2′-oxospiro[piperidine-4,3′-pyrrolo[2,3-c]pyridin]-1′(2′H)-yl]methyl}-1H-indole-3-carboxamide] | – | 388687
COc1ccc(S(=O)(=O)N2CCC3(CC2)C(=O)N(Cc2nc4cc(Cl)ccc4n2CCCS(C)(=O)=O)c2ccccc23)cc1 [Compound 36, 1-({5-chloro-1-[3-(methylsulfonyl)propyl]-1H-benzimidazol-2-yl}methyl)-1′-[(4-methoxyphenyl)-sulfonyl]spiro[indole-3,4′-piperidin]-2(1H)-one] | 353419 | –
